The record followed here is PubChem BioAssay AID977630 (Broad Institute, 2014).

The list shows a part of the results, in another mix than the full data. Potency and affinity values are given separately. Inconclusive results are not listed. The source made the active and inactive calls.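 How the source made its calls: active means Normal-ribosome green reporter loss at least double humanized-ribosome red reporter loss, with overall culture growth inhibition under a set limit; inconclusive means no clear call, values can overlap the other calls; inactive means the rest.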

This test can be described thus: E. coli growth inhibition, wild-type GFP versus H38 humanized RFP strain – H38 mutant RFP vs wild-type GFP, cherry-pick, dose response (AID 977630). The settings on record: mixed culture, 24 h; at 50 µM (top of the series).
For `O=[N+]([O-])c1cc([N+](=O)[O-])c(Nc2nnnn2CCO)c([N+](=O)[O-])c1`, the activity change, negative = inhibition is inactive: -0.21.
